Measured values from several laboratories, pooled; numbers as filed in NIAID ChemDB.

All rows: growth or infection tests; species: Herpes simplex virus 1

Conditions beyond the fields shown may differ between rows. ECn: concentration that inhibits the pathogen or its effect by n%. Blank or dashed fields: not listed here.

structure | strain or isolate | read by | endpoint | cell line | value
C[C@]12CCC3C(CC[C@H]4C[C@@H](O)CC[C@]34C)C1[C@H](O)CC2=O | - | virus yield | EC50 | VERO | 225 µM
Nc1ncc2c(ncn2COC(CO)CO)n1 | KOS BVDU-resistant | cytopathic effect | EC50 | HEL | 0.11 µg/mL
CC(=O)O[C@H]1CC[C@]2(C)C3CC[C@]4(C)C(=O)[C@H](OC(C)=O)CC4C3CC[C@H]2C1 | - | virus yield | EC50 | VERO | 218 µM
COc1ccc(-c2c(C#N)c(NC(=S)Nc3ccccc3)nc3[nH]c(=O)[nH]c(=O)c23)cc1OC | - | plaque count | EC50 | VERO | 20 µg/mL
CC1OP(=O)(OC[C@H]2O[C@@H](n3cc(/C=C/Br)c(=O)[nH]c3=O)C[C@@H]2O)Oc2cccc(Cl)c21 | B2006 (TK-) | plaque count | EC50 | VERO | >128 µg/mL
C[C@]12CC[C@H](O)CC1=CC[C@@H]1[C@@H]2CC[C@@]2(C)[C@H]1CCC21OCCO1 | - | virus yield | EC50 | VERO | 629 µM
O=c1[nH]c(=O)n([C@H]2C[C@H](O)[C@@H](COP3(=O)OCc4cc(-c5ccccc5)ccc4O3)O2)cc1/C=C/Br | KUPKA (TK+) | plaque count | EC50 | VERO | 0.27 µg/mL
N#Cc1c(N)nc2[nH]c(=O)[nH]c(=O)c2c1-c1cccc([N+](=O)[O-])c1 | - | plaque count | EC50 | VERO | 50 µg/mL
COc1ccc2nc3cc(Cl)ccc3c(NCCN3CCCC(O)C3)c2c1 | - | plaque count | EC50 | VERO 76 | >14 µM
COC(=O)c1cn([C@@H]2C[C@H](CO)C[C@H]2O)nn1 | F | plaque count | EC90 | VERO | >100 µM
O=c1[nH]c(=O)n([C@H]2C[C@H](O)[C@@H](COP3(=O)OCc4cc(Cl)ccc4O3)O2)cc1/C=C/Br | KUPKA (TK+) | plaque count | EC50 | VERO | 0.21 µg/mL
CO[C@H]1[C@@H](O)[C@H](O)[C@H](OC[C@@]23C[C@@H]4[C@H](C)CC[C@H]4[C@@]4(C=O)C[C@@H]2C=C(C(C)C)[C@@]34C(=O)O)O[C@@H]1C | KOS | cytopathic effect | EC50 | HeLa | >200 µg/mL
CC(=O)CCC(=O)O[C@H]1C[C@H](n2cc(/C=C/Br)c(=O)[nH]c2=O)O[C@@H]1COP1(=O)OCc2cccc(C)c2O1 | B2006 (TK-) | plaque count | EC50 | VERO | >128 µg/mL
O=C(O)CP(=O)(O)O | KOS PFA-resistant | cytopathic effect | EC50 | HEL | 64.5 µg/mL
NC(=O)c1cn([C@@H]2C[C@H](CCP(=O)(O)O)C[C@H]2O)nn1 | F | plaque count | EC90 | VERO | >100 µM
CC(=O)N[C@H]1[C@@H](O[C@@H]2O[C@H](C[C@@H](O)[C@H]3O[C@@H](n4ccc(=O)[nH]c4=O)[C@H](O)[C@@H]3O)[C@H](O)[C@H](O)[C@H]2NC(=O)/C=C/CC(C)C)O[C@H](CO)[C@@H](O)[C@@H]1O | - | plaque count | EC50 | Chicken fibroblasts | <0.5 µg/mL
Nc1nc2c(ncn2CCC(CO)CO)c(=O)[nH]1 | KOS HPMPC-resistant | cytopathic effect | EC50 | HEL | 0.026 µg/mL
O=c1[nH]c(=O)n([C@H]2C[C@H](O)[C@@H](COP3(=O)OCc4cc5ccccc5cc4O3)O2)cc1/C=C/Br | B2006 (TK-) | plaque count | EC50 | VERO | >128 µg/mL
Nc1c2ccccc2nc2ccccc12 | - | plaque count | EC50 | VERO 76 | >8 µM
C[C@@]1(CO)[C@H](O)CC[C@@]2(C)[C@H]1CC[C@H]1C[C@@H]3C[C@@]12CC[C@]3(O)CO | - | plaque count | EC50 | VERO | 2.1 µg/mL
C[C@@H](N)C(=O)O[C@H]1C[C@H](n2cc(/C=C/Br)c(=O)[nH]c2=O)O[C@@H]1COP1(=O)OCc2ccccc2O1 | KUPKA (TK+) | plaque count | EC50 | VERO | 0.24 µg/mL
O=C(CCC[Se][Se]CCCC(=O)Nc1ccc(S(=O)(=O)N2CCCCC2)cc1)Nc1ccc(S(=O)(=O)N2CCCCC2)cc1 | - | - | MIC | - | >1000 µg/mL
Nc1ccn([C@@H]2CS[C@H](CO)O2)c(=O)n1 | F | plaque count | EC90 | VERO | >100 µM
COc1cc([C@@H]2c3cc(O)c(O)cc3C[C@H]3COC(=O)[C@@H]32)cc(OC)c1OC | INOUE | - | EC50 | MRC-5 | 0.224 µg/mL
Nc1ncnc2c1ncn2C[C@@H](CO)OCP(=O)(O)O | KOS | cytopathic effect | EC50 | U373-MG | 12.1 µg/mL
Nc1nccc2c1ncn2[C@@H]1O[C@H](CO)[C@@H](O)[C@H]1O | KOS | cytopathic effect | EC50 | PRK | 200 µg/mL
Clc1cc2nc[nH]c2cc1Cl | KOS | cytopathic effect | EC50 | E6SM | >10 µg/mL
Nc1ncnc2c1ncn2[C@@H]1O[C@H](CO)C[C@@H]1O | KOS | cytopathic effect | EC50 | U138-MG | 8.75 µg/mL
COc1cc(C[C@H]2C(=O)OC[C@@H]2Cc2ccc3c(c2)OCO3)cc(OC)c1OC | KOS | - | EC50 | MRC-5 | >11.9 µg/mL
C[C@]12CCC3C(CC[C@H]4C[C@@H](O)CC[C@]34C)C1C[C@@H](O)C2=O | - | virus yield | EC50 | VERO | 117 µM
O=C(O)P(=O)(O)O | - | cytopathic effect | EC50 | GMK | >12.5 µg/mL
C(=Nc1ccccc1[Se][Se]c1ccccc1N=Cc1ccccc1)c1ccccc1 | - | - | MIC | - | >1000 µg/mL
COc1cc2c(cc1O)C[C@H]1c3c(cc(O)c(OC)c3-2)CCN1C | KOS | cytopathic effect | EC50 | HeLa | >200 µg/mL
CCCNC(=O)Oc1ccccc1[Se][Se]c1ccccc1OC(=O)NCCC | - | - | MIC | - | >1000 µg/mL
COc1ccc2nc3cc(Cl)ccc3c(NCCN3CCOCC3)c2c1 | - | plaque count | EC50 | VERO 76 | >12 µM
COC1=CC(=O)N(C(=O)C2CSC(C(CO)NC(=O)c3csc(C=NO)n3)=N2)C1 | KOS | cytopathic effect | EC50 | HeLa | >200 µg/mL
O=c1[nH]c(=O)c2c(-c3cccc([N+](=O)[O-])c3)c3c(=O)[nH]cnc3nc2[nH]1 | - | plaque count | EC50 | VERO | 10 µg/mL
Nc1nc2c(ncn2COCCO)c(=O)[nH]1 | - | plaque count | EC50 | HELA TK- | 4.2 µM
NC(=O)c1cn([C@@H]2C[C@H](CO)C[C@H]2O)nn1 | F | plaque count | EC90 | VERO | >100 µM
N#Cc1c(NC(=S)Nc2ccccc2)nc2[nH]c(=O)[nH]c(=O)c2c1-c1ccc(Cl)cc1 | - | plaque count | EC50 | VERO | 8 µg/mL
Nc1nc2c(ncn2COCCOP(=O)(O)C(=O)O)c(=O)[nH]1 | AVD | cytopathic effect | EC50 | VERO | 143 µM
[N-]=[N+]=CC(=O)CC[C@H](N)C(=O)O | KOS | plaque count | EC50 | VERO | 16 µM
CCCCC[C@H](O)/C=C/C1[C@H](O)CC(=O)[C@@H]1CCCCCCC(=O)O | KOS | cytopathic effect | EC50 | HeLa | >4 µg/mL
O=c1[nH]c(=O)n([C@H]2C[C@H](O)[C@@H](CO)O2)cc1/C=C/Br | - | plaque count | EC50 | U373-MG | <0.01 µM
COc1cc(C2c3c(cc4c(c3OC)OCO4)C[C@H]3COC(=O)[C@H]23)cc(OC)c1OC | INOUE | - | EC50 | MRC-5 | 0.072 µg/mL
O=[N+]([O-])c1cc(Cl)c(Cl)cc1[N+](=O)[O-] | KOS | cytopathic effect | EC50 | E6SM | >1 µg/mL
CC(=O)O[C@H]1CC[C@]2(C)C3CC[C@@]4(C)C(CCC45OCCO5)C3CC[C@H]2C1 | - | virus yield | EC50 | VERO | 77.6 µM
Nc1ncnc2c1ncn2C[C@H](O)CO | KOS F McIntyre | cytopathic effect | EC50 | PRK | ≥300 µg/mL
CC(C)[Si]1(C(C)C)OC[C@H]2O[C@@H](n3cnc4cc(Cl)c(Cl)cc43)[C@H](O)[C@H]2O[Si](C(C)C)(C(C)C)O1 | KOS | cytopathic effect | EC50 | E6SM | >10 µg/mL
COc1ccc(-c2c(C#N)c(NC(=O)Nc3ccccc3)nc3[nH]c(=O)[nH]c(=O)c23)c(OC)c1 | - | plaque count | EC50 | VERO | 4 µg/mL
Nc1nc2c(ncn2COCCO)c(=O)[nH]1 | F | plaque count | EC90 | VERO | 0.69 µM
Cc1cn([C@@H]2O[C@H](CO)[C@@H](O)[C@@H]2O)c(=O)[nH]c1=O | KOS HPMPC-resistant | cytopathic effect | EC50 | HEL | 0.082 µg/mL
COc1ccc2nc3cc(Cl)ccc3c(NC3CN4CCC3CC4)c2c1 | - | plaque count | EC50 | VERO 76 | >35 µM
CC(=O)O[C@H]1CC[C@@]2(C)C(=CC[C@@H]3[C@@H]2CC[C@]2(C)C(=O)[C@H](OC(C)=O)C[C@@H]32)C1 | - | virus yield | EC50 | VERO | 59.2 µM
COC(=O)c1cc(O)c(O)c(O)c1 | KOS | plaque count | EC50 | HEL | 6.1 µg/mL
Nc1nc2c(ncn2COC(CO)CO)c(=O)[nH]1 | KOS HPMPA-resistant | cytopathic effect | EC50 | HEL | 0.005 µg/mL
CCCOC(=O)c1cc(O)c(O)c(O)c1 | KOS | plaque count | EC50 | HEL | 17 µg/mL
CN1CCC[C@H]1c1cccnc1 | KOS | cytopathic effect | EC50 | HeLa | >200 µg/mL
Nc1nc2c(ncn2COCCO)c(=O)[nH]1 | - | plaque count | EC90 | GMK | 0.59 µg/mL
O[C@@H]1[C@@H](OCc2ccccc2)[C@@H](COCc2ccccc2)O[C@H]1n1cnc2cc(Cl)c(Cl)cc21 | KOS | cytopathic effect | EC50 | E6SM | >10 µg/mL
Nc1ncnc2c1ncn2CCOCP(=O)(O)O | KOS HPMPC-resistant | cytopathic effect | EC50 | HEL | 7.4 µg/mL
COc1ccc2nc3cc(Cl)ccc3c(N[C@@H]3CCCN4CCCC[C@H]34)c2c1 | - | plaque count | EC50 | VERO 76 | >70 µM
CCCCCCCC/C=C\CCCCCCCCCCCC(=O)O | KOS | cytopathic effect | EC50 | HeLa | >200 µg/mL
O=c1[nH]cccc1O | KOS | plaque count | EC50 | HEL | >200 µg/mL
CCCCCC(=O)O[C@H]1C[C@H](n2cc(/C=C/Br)c(=O)[nH]c2=O)O[C@@H]1COP1(=O)OCc2cccc(C)c2O1 | KUPKA (TK+) | plaque count | EC50 | VERO | 0.54 µg/mL
CN(CC(=O)O)NC(=O)CC(N)CC(O)CN | KOS | cytopathic effect | EC50 | HeLa | >200 µg/mL
O=c1[nH]c(=O)n([C@@H]2C[C@@H](O)[C@H](CO)O2)cc1/C=C/Br | - | plaque count | EC50 | MRC-5 | 3.2 µM
CC(C)NCC(O)c1ccc(O)c(O)c1 | KOS | plaque count | EC50 | HEL | 102 µg/mL
COc1ccc2nc3cc(Cl)ccc3c(Nc3cccnc3)c2c1 | - | plaque count | EC50 | VERO 76 | >100 µM
CCCN1[Se]c2ccccc2NC1=O | - | - | MIC | - | 400 µg/mL
O=C(C=Cc1ccc(O)c(O)c1)O[C@@H]1C[C@](O)(C(=O)O)C[C@@H](O)[C@H]1O | KOS | cytopathic effect | EC50 | HeLa | >200 µg/mL
Cc1cccc2c1OP(=O)(OC[C@H]1O[C@@H](n3cc(/C=C/Br)c(=O)[nH]c3=O)C[C@@H]1OC(=O)C(C)(C)C)OC2 | KUPKA (TK+) | plaque count | EC50 | VERO | 5.45 µg/mL
C=C1O[C@@](CO)(n2cnc3c(N)ncnc32)[C@H](O)[C@@H]1O | KOS | cytopathic effect | EC50 | HeLa | >100 µg/mL
CC(=O)O[C@H]1C[C@H](n2cc(/C=C/Br)c(=O)[nH]c2=O)O[C@@H]1COP1(=O)OCc2cccc(C)c2O1 | KUPKA (TK+) | plaque count | EC50 | VERO | 0.8 µg/mL
CCOC(=O)c1cc(O)c(O)c(O)c1 | B2006 (TK-) | plaque count | EC50 | HEL | 7.4 µg/mL

For reference, 11 entries again:

structure | strain or isolate | read by | endpoint | cell line | value
O=[N+]([O-])c1cc(Cl)c(Cl)cc1[N+](=O)[O-] | KOS | cytopathic effect | EC50 | E6SM | >1 µg/mL
CC(=O)N[C@H]1[C@@H](O[C@@H]2O[C@H](C[C@@H](O)[C@H]3O[C@@H](n4ccc(=O)[nH]c4=O)[C@H](O)[C@@H]3O)[C@H](O)[C@H](O)[C@H]2NC(=O)/C=C/CC(C)C)O[C@H](CO)[C@@H](O)[C@@H]1O | - | plaque count | EC50 | Chicken fibroblasts | <0.5 µg/mL
CC1OP(=O)(OC[C@H]2O[C@@H](n3cc(/C=C/Br)c(=O)[nH]c3=O)C[C@@H]2O)Oc2cccc(Cl)c21 | B2006 (TK-) | plaque count | EC50 | VERO | >128 µg/mL
N#Cc1c(NC(=S)Nc2ccccc2)nc2[nH]c(=O)[nH]c(=O)c2c1-c1ccc(Cl)cc1 | - | plaque count | EC50 | VERO | 8 µg/mL
Nc1nc2c(ncn2COCCO)c(=O)[nH]1 | - | plaque count | EC90 | GMK | 0.59 µg/mL
COc1ccc2nc3cc(Cl)ccc3c(NC3CN4CCC3CC4)c2c1 | - | plaque count | EC50 | VERO 76 | >35 µM
Nc1ncnc2c1ncn2[C@@H]1O[C@H](CO)C[C@@H]1O | KOS | cytopathic effect | EC50 | U138-MG | 8.75 µg/mL
C(=Nc1ccccc1[Se][Se]c1ccccc1N=Cc1ccccc1)c1ccccc1 | - | - | MIC | - | >1000 µg/mL
COC1=CC(=O)N(C(=O)C2CSC(C(CO)NC(=O)c3csc(C=NO)n3)=N2)C1 | KOS | cytopathic effect | EC50 | HeLa | >200 µg/mL
CC(=O)O[C@H]1C[C@H](n2cc(/C=C/Br)c(=O)[nH]c2=O)O[C@@H]1COP1(=O)OCc2cccc(C)c2O1 | KUPKA (TK+) | plaque count | EC50 | VERO | 0.8 µg/mL
O=c1[nH]c(=O)n([C@H]2C[C@H](O)[C@@H](COP3(=O)OCc4cc(Cl)ccc4O3)O2)cc1/C=C/Br | KUPKA (TK+) | plaque count | EC50 | VERO | 0.21 µg/mL